Anti-infective test results gathered from many reports (values: NIAID ChemDB through PubChem).

Shared fields: growth or infection tests; agent: Mycobacterium tuberculosis

Lines come from different laboratories, so protocols vary. ECn: concentration that inhibits the pathogen or its effect by n%. Inhibition is in % at the dose shown (toxicity tests: loss of growth or viability). MIC50, MIC90 and the like: level of inhibition, or share of isolates inhibited. An empty or dashed field is not shown. MIC bound: limit read from a one-dose screen. a–b is a range or a potency band.

smiles	cells	method	measure	dose	changes	strain	result
O=c1oc2ccc(Br)cc2cc1-c1cs/c(=N\N=C\c2cc(Br)ccc2O)n1C1CCCCC1	-	-	EC50	-	-	H37Rv	>12.5 µg/mL
Cc1c2c(OCCCCN3CCN(c4ncccn4)CC3)nn(C)c(=O)c2c(C)n1-c1ccccc1	-	-	EC50	-	-	H37Rv	>12.5 µg/mL
CC(C)=CCCC(C)CCC1(C)SC(=O)C(C)=C1O	-	-	MIC90	-	-	H37Rv	56 µM
NNC(=O)c1ccncc1	-	turbidity	MIC90	-	-	H37Rv	0.12 µM
c1ccc(Sc2nnc(N3CCN(c4nc(N5CCN(c6ccccc6)CC5)c5ccccc5n4)CC3)o2)cc1	-	agar / visual reading	MIC	-	-	H37Rv	50 µg/mL
CO[C@H]1/C=C/O[C@@]2(C)Oc3c(C)c(O)c4c(O)c(c(/C=N/N5CCN(C)CC5)c(O)c4c3C2=O)NC(=O)/C(C)=C\C=C\[C@H](C)[C@H](O)[C@@H](C)[C@@H](O)[C@@H](C)[C@H](OC(C)=O)[C@@H]1C	-	resazurin / absorbance	MIC	-	katG mutant isoniazid resistant	HUG.MI.1020	0.001 µg/mL
C[C@@H]1[C@H](O)[C@@H](C)/C=C/C=C/CC/C=C/C=C/C=C/C=C/C(O[C@H]2O[C@H](C)[C@@H](O)[C@H](N)[C@@H]2O)CC2O[C@](O)(CC(O)C(O)CCC(O)CC(O)CC(O)CC(=O)O[C@H]1C)CC(O)C2C(=O)O	-	BACTEC	MIC	-	-	H37Rv	≥12.8 µg/mL
COc1ccc(Sc2ncnc3nc[nH]c23)c(OC)c1	-	-	MIC90	-	-	H37Rv	>6.25 µg/mL
CCCCCCCCCCCCNC(CCO)C1OC2OC(C)(C)OC2[C@H]1OCc1ccccc1	-	-	MIC	-	-	H37Rv	12.5 µg/mL
COc1ccccc1CSc1ccccn1	-	-	MIC90	-	-	H37Rv	>6.25 µg/mL
CC(C)=CCC/C(C)=C/CC/C(C)=C/CC1(C)SC(=O)C(C)=C1O	-	-	MIC90	-	-	H37Rv	29 µM
CCCCCCCCCCCCNC(CCO)C1OC2OC(C)(C)OC2[C@@H]1OCc1ccccc1	-	-	MIC	-	-	H37Rv	3.12 µg/mL
O=c1oc2ccc(Br)cc2cc1-c1cs/c(=N/N=C/c2ccc(Cl)cc2)n1C1CCCCC1	-	-	EC50	-	-	H37Rv	>12.5 µg/mL
Cc1cccc(CSc2ncnc3nc[nH]c23)c1	-	-	MIC	-	-	H37Ra	>12.8 µg/mL
CCOC(=O)c1nc(C)c(C(=O)OCC)nc1C	-	BACTEC	inhibition	12.5 µg/mL	-	H37Rv	18%
COc1ccc(Sc2ccncc2)cc1OC	-	-	MIC90	-	-	H37Rv	>6.25 µg/mL
Cc1cc(=O)oc2c3c(c4c(c12)OC(C)(C)C=C4)OC(C)(C)C=C3	-	BACTEC	MIC	-	-	H37Rv	≥12.5 µg/mL
c1cc2c(s1)CCOC21CCN(Cc2ccc3c(c2)OCCO3)CC1	-	-	EC50	-	-	H37Rv	1.25 µM
CC(C)=CCOc1c2ccoc2cc2oc(=O)ccc12	-	resazurin	MIC100	-	Isoniazid-resistant	H37Rv clinical isolate CRY7	200 µg/mL
O=c1[nH]c2c(Cl)c(Cl)c(Cl)c(Cl)c2[nH]c1=O	-	BACTEC	inhibition	6.25 µg/mL	-	H37Rv	0%
CC(C)C[C@@H]1NC(=O)[C@H](Cc2c[nH]c3ccccc23)NC(=O)[C@@H](CCCN)NC(=O)[C@H](CC(N)=O)NC(=O)[C@H](C(C)C)NC(=O)[C@@H](CC(C)C)NC1=O	-	turbidity	EC50	-	-	HN878	1.95 µM
C=CCCCCCCCCC(=O)ON(Cc1ccc(O)c(OC)c1)C(=O)C(F)(F)F	-	resazurin	inhibition	6.25 µg/mL	-	H37Rv	46%
CC1(C)CC[C@]2(C(=O)O)CC[C@]3(C)C(CC[C@@H]4[C@@]5(C)C[C@H](O)CC(C)(C)[C@@H]5CC[C@]43C)[C@@H]2C1	-	resazurin	MIC	-	-	STR-R (ATCC 35820)	50 µg/mL
CO[C@H]1/C=C/O[C@@]2(C)Oc3c(C)c(O)c4c(O)c(c5c(c4c3C2=O)NC2(CCN(CC(C)C)CC2)N=5)=NC(=O)/C(C)=C\C=C\[C@H](C)[C@H](O)[C@@H](C)[C@@H](O)[C@@H](C)[C@H](OC(C)=O)[C@@H]1C	-	-	MIC	-	-	MDR-2 (MDR)	>1.6 µg/mL
CC1=C(O)C(C)(CCC(C)CCCC(C)C)SC1=O	-	-	MIC90	-	-	H37Rv	29 µM
C[C@@H]1C(=O)N(C)C(=O)[C@H]1N	-	BACTEC	MIC bound	-	-	H37Rv	>12.8 µg/mL
CCCCn1c(C)c2c(=O)n(C)n(Cc3ccc(Cl)cc3)c(=O)c2c1C	-	-	inhibition	12.5 µg/mL	-	H37Rv	52%
COc1cc(CN2CCC3(CC2)OCCc2sccc23)ccc1O	-	-	EC50	-	-	H37Rv	>100 µM
CCCCCCCNC(CCO)[C@H]1OC2OC(C)(C)OC2C2OC(C)(C)OC21	-	-	MIC	-	-	H37Ra	>100 µg/mL
NNC(=O)c1ccncc1	-	resazurin	MIC	-	dprE1 G387S	NTB1	0.025 µg/mL
C=C/C(C)=C/[C@@]1(C)SC(=O)C(C)=C1O	-	-	MIC50	-	-	H37Rv	56 µM
CCCCCCCCSc1nc(Cl)nc2nc[nH]c12	-	-	MIC	-	-	H37Ra	>12.8 µg/mL
N#Cc1ccc(NNC(=O)N2CCN(c3nc(N4CCN(c5ccccc5)CC4)c4ccccc4n3)CC2)cc1	-	agar / visual reading	MIC	-	-	H37Rv	12.5 µg/mL
Cc1ccn2nc(C)c(C(=O)NCc3ccc(-c4ccc(OC(F)(F)F)cc4)nc3)c2c1	-	resazurin	MIC	-	rpoB mutant rifampicin-resistant	RIF-R1	0.009 µg/mL
O=[N+]([O-])c1ccc(N/N=C/c2cccc([N+](=O)[O-])c2)nc1	-	BACTEC	inhibition	12.5 µg/mL	-	H37Rv	-5%
O=C(NNc1cccc([N+](=O)[O-])c1)N1CCN(c2nc(N3CCN(c4ccccc4)CC3)c3ccccc3n2)CC1	-	agar / visual reading	inhibition	50 µg/mL	-	H37Rv	92%
O=C(/C=C/c1ccccc1)n1nnc2cc(Cl)c(Cl)cc21	-	BACTEC	inhibition	12.5 µg/mL	-	H37Rv	10%
CC(C)C[C@@H]1NC(=O)[C@H](Cc2c[nH]c3ccccc23)NC(=O)[C@H](CCCCN)NC(=O)[C@H](CC(N)=O)NC(=O)[C@H](C(C)C)NC(=O)[C@@H](CC(C)C)NC1=O	-	turbidity	MIC90	-	-	H37Ra	>30 µM
C[C@@H]1CN(c2c(F)c(N)c3c(=O)c(C(=O)O)cn(C4CC4)c3c2F)C[C@H](C)N1	-	-	MIC	-	-	MDR-2 (MDR)	0.2 µg/mL
c1ccc(CN2CCC3(CC2)OCCc2sccc23)cc1	-	-	EC50	-	-	H37Rv	5 µM
COc1ccccc1NNC(=O)N1CCN(c2nc(N3CCN(c4ccccc4)CC3)c3ccccc3n2)CC1	-	agar / visual reading	MIC	-	-	H37Rv	25 µg/mL
CC(C)C[C@@H]1NC(=O)[C@H](Cc2c[nH]c3ccccc23)NC(=O)[C@@H](CCCN=C(N)N)NC(=O)[C@H](CC(N)=O)NC(=O)[C@H](C(C)C)NC(=O)[C@@H](CC(C)C)NC1=O	-	turbidity	MIC90	-	-	HN353	2.97 µM
CCCCCCCCCC[C@H](C(=O)O)[C@]1(C(=O)O)CCC(=O)O1	-	BACTEC	MIC bound	-	-	H37Rv	>12.5 µg/mL
CC(=O)c1ccccc1Sc1nnc(N2CCN(c3nc(N4CCN(c5ccccc5)CC4)c4ccccc4n3)CC2)o1	-	BACTEC / fluorescence	MIC	-	-	H37Rv	>6.25 µg/mL
Clc1nc(Sc2ccncc2)c2[nH]cnc2n1	-	-	inhibition	6.25 µg/mL	-	H37Rv	45%
Cc1c[nH]c(C(=O)O)c1-c1ccc2c(-c3ccccc3)nc3ccccc3n12	-	-	inhibition	12.5 µg/mL	-	H37Rv	11%
COc1ccc(OC)c(Sc2ncnc3nc[nH]c23)c1	-	-	inhibition	6.25 µg/mL	-	H37Rv	0%
COc1ccc2nc3cc(Cl)ccc3c(Nc3cc(CN4CCCC4)c(O)c(CN4CCCC4)c3)c2n1	-	resazurin	MIC	-	Rv3405c c190t	Ty1	5–10 µg/mL
CC(=O)O[C@@H]1/C=C/[C@@](C)(O)C(=O)[C@@H](C)C/C=C/[C@H]2[C@@H]3O[C@]3(C)[C@@H](C)[C@H]3[C@H](Cc4ccccc4)NC(=O)[C@@]312	-	-	MIC	-	-	H37Ra	>200 µg/mL
Cc1c2c(OCC(O)CN3CCc4ccccc4C3)nn(C)c(=O)c2c(C)n1-c1ccccc1	-	-	EC50	-	-	H37Rv	>12.5 µg/mL
Nc1cc(=O)[nH]c(N2CCN(c3ccccc3)CC2)n1	-	BACTEC	inhibition	12.5 µg/mL	-	H37Rv	20%
NNC(=O)c1ccncc1	-	-	MIC	-	-	2219	>4 µg/mL
CCOC(=O)c1[nH]cc(C)c1-c1ccc2c(-c3ccccc3)nc3ccccc3n12	-	-	MIC	-	-	H37Rv	<12.5 µg/mL
COc1ccc(Sc2ncccn2)cc1	-	-	inhibition	6.25 µg/mL	-	H37Rv	0%
Nc1cnn2nnnc2c1Cl	-	BACTEC	inhibition	12.5 µg/mL	-	H37Rv	0%
Cc1cc(CN2CCC3(CC2)OCCc2sccc23)c(C)n1-c1ccc(F)cc1	-	-	EC50	-	-	H37Rv	1.25 µM
CCCCCCCCCCCCNC[C@H]1OC2OC(C)(C)OC2C2OC(C)(C)OC21	-	-	MIC	-	-	H37Rv	6.25 µg/mL
COc1ccc(CSC(=S)Nc2ccc(Cl)c([N+](=O)[O-])c2)cc1	-	BACTEC	inhibition	128 µg/mL	-	H37Rv	100%
CCCCCCCCCCCCCCCCNC(CCO)[C@H]1OC2OC(C)(C)OC2C2OC(C)(C)OC21	-	-	MIC	-	-	H37Ra	25 µg/mL
CSC[S@](=O)C[C@H](CO)NC(=O)/C=C/c1c(C)[nH]c(=O)[nH]c1=O	-	BACTEC	MIC bound	-	-	H37Rv	>12.8 µg/mL
O=C(O)c1ccc(NNC(=O)N2CCN(c3nc(N4CCN(c5ccccc5)CC4)c4ccccc4n3)CC2)cc1	-	BACTEC / fluorescence	inhibition	6.25 µg/mL	-	H37Rv	0%
CC(C)=CCC1(C)SC(=O)C(C)=C1O	-	-	MIC50	-	-	H37Rv	>300 µM
CCOC(=O)c1[nH]cc(C)c1-c1cc2c(-c3ccccc3)nc3ccccc3n2c1	-	-	EC50	-	-	H37Rv	<12.5 µg/mL
Cc1ccc(Sc2nnc(N3CCN(c4nc(N5CCN(c6ccccc6)CC5)c5ccccc5n4)CC3)o2)cc1	-	BACTEC / fluorescence	MIC	-	-	H37Rv	>6.25 µg/mL
CCCCCCCCCCCCCCCCNC(CCO)[C@@H]1OC2OC(C)(C)OC2C2OC(C)(C)OC21	-	-	MIC	-	-	H37Ra	12.5 µg/mL
O=C(O)c1cccc2cccc(-c3c4ccc(=O)c(O)c-4oc4c(O)c(O)ccc34)c12	-	BACTEC	inhibition	12.5 µg/mL	-	H37Rv	-7%
CCCCCCCNC(CCO)C1OC2OC(C)(C)OC2[C@@H]1OC	-	-	MIC	-	-	H37Ra	50 µg/mL
CCCCn1c(C)c2c(=O)[nH]n(C)c(=O)c2c1C	-	-	inhibition	12.5 µg/mL	-	H37Rv	16%
S=C(S)NN1CCCC1	-	-	MIC	-	-	EMB-R	0.4 µg/mL
Cc1ccn2nc(C)c(C(=O)NCc3ccc(-c4ccc(OC(F)(F)F)cc4)cn3)c2c1	-	resazurin	MIC	-	katG mutant isoniazid resistant	INH-R1	0.014 µg/mL
CC(C)c1cc(=O)c2cc3[nH]c4ccccc4c3cc2[nH]1	VERO	-	MIC	-	-	H37Rv	12.5 µg/mL
O=C(NNc1ccccc1[N+](=O)[O-])N1CCN(c2nc(N3CCN(c4ccccc4)CC3)c3ccccc3n2)CC1	-	agar / visual reading	MIC	-	-	H37Rv	12.5 µg/mL
C/C(=N\NC(=S)N1CCCC1)c1cnccn1	-	BACTEC	MIC bound	-	-	H37Rv	>12.5 µg/mL
O=Cc1ccc(Sc2nnc(N3CCN(c4nc(N5CCN(c6ccccc6)CC5)c5ccccc5n4)CC3)o2)cc1	-	agar / visual reading	inhibition	25 µg/mL	-	H37Rv	91%
Cc1c(O)c(=O)ccn1CCCl	-	BACTEC	MIC	-	-	H37Rv	≥12.5 µg/mL
CCOc1cc(/C=N/N=c2\scc(-c3cc4ccccc4oc3=O)n2C2CCCCC2)ccc1O	-	-	MIC	-	-	H37Rv	6.25 µg/mL
Cl.FC(F)(F)C1(C(F)(F)F)N=CC=CN1	-	BACTEC	MIC bound	-	-	H37Rv	>12.8 µg/mL
CCN(CC)Cc1cc(Nc2ccnc3cc(Cl)ccc23)ccc1O	-	resazurin	MIC	-	-	H37Rv	>20 µg/mL
CN(C)S(=O)(=O)c1ccc2c(c1)N(CCCN1CCN(S(C)(=O)=O)CC1)c1ccccc1S2	-	BACTEC	MIC bound	-	-	H37Rv	>12.5 µg/mL
CC(C)C[C@@H]1NC(=O)[C@H](Cc2c[nH]c3ccccc23)NC(=O)[C@@H](CCCCN)NC(=O)[C@H](CC(N)=O)NC(=O)[C@H](C(C)C)NC(=O)[C@@H](CC(C)C)NC1=O	-	turbidity	MIC	-	-	H37Rv	0.99 µM

The first 6 rows once more:

smiles	cells	method	measure	dose	changes	strain	result
O=c1oc2ccc(Br)cc2cc1-c1cs/c(=N\N=C\c2cc(Br)ccc2O)n1C1CCCCC1	-	-	EC50	-	-	H37Rv	>12.5 µg/mL
Cc1c2c(OCCCCN3CCN(c4ncccn4)CC3)nn(C)c(=O)c2c(C)n1-c1ccccc1	-	-	EC50	-	-	H37Rv	>12.5 µg/mL
CC(C)=CCCC(C)CCC1(C)SC(=O)C(C)=C1O	-	-	MIC90	-	-	H37Rv	56 µM
NNC(=O)c1ccncc1	-	turbidity	MIC90	-	-	H37Rv	0.12 µM
c1ccc(Sc2nnc(N3CCN(c4nc(N5CCN(c6ccccc6)CC5)c5ccccc5n4)CC3)o2)cc1	-	agar / visual reading	MIC	-	-	H37Rv	50 µg/mL
CO[C@H]1/C=C/O[C@@]2(C)Oc3c(C)c(O)c4c(O)c(c(/C=N/N5CCN(C)CC5)c(O)c4c3C2=O)NC(=O)/C(C)=C\C=C\[C@H](C)[C@H](O)[C@@H](C)[C@@H](O)[C@@H](C)[C@H](OC(C)=O)[C@@H]1C	-	resazurin / absorbance	MIC	-	katG mutant isoniazid resistant	HUG.MI.1020	0.001 µg/mL